Measured values reported in patent US12605351B2, “Method for producing a composition comprising a 3-O-p-coumaroyl ester of tormentic acid from a plant cell culture, applications thereof as antiparasitic agent for the treatment of trypanosomiasis” (LUXEMBOURG INSTITUTE OF SCIENCE AND TECHNOLOGY, priority 2019, dated 2026).

test system: Trypanosoma brucei brucei bloodstream forms (strain 427); experiment: In vitro antitrypanosomal activity on Tbb BSF; assay type: cell-based; conditions: Table 4
Procedure: Antiparasitic activities were evaluated in vitro on Trypanosoma brucei brucei bloodstream forms (strain 427) (Tbb BSF). Tbb BSF were cultured in vitro at 37° C. with 5% CO2 in HMI9 medium containing 10% heat-inactivated fetal bovine serum, […] ([…]) and L-cysteine ([…]).
In vitro tests were performed as previously described by Hoet S. et al. (Planta Med., 2004, 70, 407-413, doi:10.1055/s-2004-818967). Suramine (a commercial anti-trypanosomal drug) and camptothecin were used as positive controls. Stock solutions of compounds to be tested were prepared at a concentration of 10 mg/mL in DMSO. The solutions were further diluted in medium (described in 1.1) to give 0.1 mg/mL stock solutions. Extracts and compounds were tested in eight serial three-fold dilutions (final concentration range: 50-0.02 mg/L) in 96-well microliter plates. All tests were performed at least in duplicate.

| Compound | SI (IC50WI38/IC50Tbb) |
| --- | --- |
| C[C@H]1[C@H](C)CC[C@]2(C(=O)O)CC[C@]3(C)C(=CC[C@@H]4[C@@]5(C)CC[C@H](OC(=O)CCc6ccccc6)C(C)(C)C5CC[C@]43C)[C@H]12 (stereo partly drawn) [Derivative (II-1), 3-O-hydrocinnamic ursolic acid] | 64.0 |
| C[C@H]1[C@H](C)CC[C@]2(C(=O)O)CC[C@]3(C)C(=CC[C@@H]4[C@@]5(C)CC[C@H](OC(=O)CCc6ccc(F)cc6)C(C)(C)C5CC[C@]43C)[C@H]12 (stereo partly drawn) [Derivative (II-3), 3-O-parafluorophenylpropionic ursolic acid] | >67.3 |
| C[C@H]1[C@H](C)CC[C@]2(C(=O)O)CC[C@]3(C)C(=CC[C@@H]4[C@@]5(C)CC[C@H](OC(=O)CCc6cccc(F)c6)C(C)(C)C5CC[C@]43C)[C@H]12 (stereo partly drawn) [Derivative (II-4), 3-O-metafluorophenylpropionic ursolic acid] | >61.5 |
| C[C@H]1[C@H](C)CC[C@]2(C(=O)O)CC[C@]3(C)C(=CC[C@@H]4[C@@]5(C)CC[C@H](OC(=O)CCc6ccccc6F)C(C)(C)C5CC[C@]43C)[C@H]12 (stereo partly drawn) [Derivative (II-5), 3-O-orthofluorophenylpropionic ursolic acid] | >79.5 |
| CC1(C)CC[C@]2(C(=O)O)CC[C@]3(C)C(=CC[C@@H]4[C@@]5(C)CC[C@H](OC(=O)CCc6ccccc6)C(C)(C)C5CC[C@]43C)[C@@H]2C1 (stereo partly drawn) [Derivative (II-6), 3-O-hydrocinnamic oleanolic acid] | 9.1 |
| CC1(C)CC[C@]2(C(=O)O)CC[C@]3(C)C(=CC[C@@H]4[C@@]5(C)CC[C@H](OC(=O)CCc6ccc(F)cc6)C(C)(C)C5CC[C@]43C)[C@@H]2C1 (stereo partly drawn) [Derivative (II-8), 3-O-parafluorophenylpropionic oleanolic acid] | 5.7 |
| CC1(C)CC[C@]2(C(=O)O)CC[C@]3(C)C(=CC[C@@H]4[C@@]5(C)CC[C@H](OC(=O)CCc6cccc(F)c6)C(C)(C)C5CC[C@]43C)[C@@H]2C1 (stereo partly drawn) [Derivative (II-9), 3-O-metafluorophenylpropionic oleanolic acid] | 12.1 |

same assay, conditions: cytotoxicity in WI38 compared to Tbb

| Compound | SI (Selectivity Index) |
| --- | --- |
| C[C@@H]1CC[C@]2(C(=O)O)CC[C@]3(C)C(=CC[C@@H]4[C@@]5(C)C[C@@H](O)[C@H](O)C(C)(C)[C@@H]5CC[C@]43C)[C@@H]2[C@]1(C)O [Tormentic acid] | 3.5 |
| Annurcoic acid [reference compound] | 2.6 |
